From patent publication US5053215A, “NMR-assayable ligand-labelled trifluorothymidine containing composition and method for diagnosis of HSV infection” (priority 1988, dated 1991)

System: livers of mice infected with HSV-2
Assay: TFT (19F) concentration in mouse livers by 19F NMR spectroscopy after i.v. injection
Assay type: in vivo, CBA/J mice; HSV-2 (333 strain)
Details: 1:6 dilution, 10 min acquisition time, 7.05 T

O=c1[nH]c(=O)n([C@H]2C[C@H](O)[C@@H](CO)O2)cc1C(F)(F)F [TFT, trifluorothymidine]
TFT tissue levels readily detected by 19F NMR: 50-100 μg/g tissue
